Measured values from several laboratories, pooled; numbers as filed in NIAID ChemDB.

Shared fields: enzyme or target tests; agent: Pneumocystis carinii

Two numbers with a dash give a range or band.

| compound | target | measure | tested at | value |
|---|---|---|---|---|
| Nc1nc(N)c2cc(Cl)ccc2n1 | DHFR | IC50 | - | 3.6 µM |
| COc1cc(CNc2ccc3nc(N)[nH]c(=O)c3c2)cc(OC)c1OC | Thymidylate synthetase | IC50 | - | >210 µM |
| Cc1cc2nc(N)nc(N)c2cc1C | DHFR | IC50 | - | 5.3 µM |
| COc1cc(N(OC)S(=O)(=O)c2ccc(N)cc2)ncn1 | DHPS | IC50 | - | 34 µM |
| N=C(N)c1ccc2c(c1)[nH]c1cc(C(=N)N)ccc12 | Ergosterol | IC50 | - | 10 µM |
| COc1ccc(-c2coc3nc(N)[nH]c(=O)c23)cc1 | DHFR | IC50 | - | 50 µM |
| Nc1nc(N)c2c3c(c(-c4ccccc4)nc2n1)CCCC3 | DHFR | IC50 | - | 6.8 µM |
| c1cc2[nH]c(-c3ccc4c(c3)[nH]c3cc(-c5nc6cc(C7=NCCN7)ccc6[nH]5)ccc34)nc2cc1C1=NCCN1 | Topoisomerase II | IC50 | - | 25 µM |
| CN(C)CCCCCCCCCCOc1ccc2ccc(=O)oc2c1 | Oxidosqualene cyclase | IC50 | - | 0.02 µM |
| COc1cccc(OC)c1C1c2c(nc(N)[nH]c2=O)OC1[N+](=O)[O-] | DHFR | IC50 | - | 100 µM |
| Cl.Cl.Cl.O.c1cc(-c2ccc(C3=NCCN3)cc2)nc(-c2ccc(C3=NCCN3)cc2)n1 | Topoisomerase II | IC50 | - | 3000–6000 µM |
| COc1c(C)c2c(c(O)c1C/C=C(\C)CCC(=O)O)C(=O)OC2 | Inosine monophosphate dehydrogenase | IC50 | - | 0.62 µM |
| CC(=O)Nc1ccc(S(=O)(=O)Nc2ccc3oc(=O)[nH]c3c2)cc1 | DHPS | IC50 | - | 601.6 µM |
| Cc1nc2nc(N)nc(N)c2c2c1CCCC2 | DHFR | IC50 | - | 1 µM |
| CC(C)N=C(N)c1ccc2[nH]c3ccc(C(N)=NC(C)C)cc3c2c1 | Topoisomerase II | IC50 | - | 5–10 µM |
| O=[N+]([O-])c1cc(S(=O)(=O)c2ccc(F)c([N+](=O)[O-])c2)ccc1F | DHPS | IC50 | - | 946.4 µM |
| COc1cc(NCc2csc3nc(N)nc(N)c23)cc(OC)c1OC | DHFR | inhibition | 10 µM | <30% |
| COc1cc(C2COc3nc(N)[nH]c(=O)c32)cc(OC)c1OC | DHFR | IC50 | - | 60 µM |
| CC(Nc1ccc2nc(N)[nH]c(=O)c2c1)c1ccc([N+](=O)[O-])cc1 | Thymidylate synthetase | IC50 | - | 46 µM |
| N=C(N)c1ccc2[nH]c3ccc(C(=N)N)cc3c2c1 | Topoisomerase II | IC50 | - | 100 µM |
| CSc1nc2nc(N)nc(N)c2c2c1CCCC2 | DHFR | IC50 | - | >30 µM |
| O=C(O)c1ccc(Cl)cc1Cl | DHPS | IC50 | - | >1000 µM |
| Cc1cccc2nc(N)nc(N)c12 | DHFR | IC50 | - | 1.5 µM |
| OCCn1ccnc1-c1ccc(-c2ccc(-c3ccc(-c4nccn4CCO)cc3)o2)cc1 | Ergosterol | IC50 | - | 363 µM |
| C=CC[N+](C)([O-])CCCCCCCCCCOc1ccc2ccc(=O)oc2c1 | Oxidosqualene cyclase | IC50 | - | 0.05 µM |
| CC(=O)Nc1ccc(C(=O)O)cc1 | DHPS | IC50 | - | 120 µM |
| c1cc2c(cc1C1=NCCCN1)c1cc(C3=NCCCN3)ccc1n2CC1CCCCC1 | Topoisomerase II | IC50 | - | 1000 µM |
| CCOC(=O)c1c(-c2ccc(C(N)=NC3CC3)cc2)oc(-c2ccc(C(N)=NC3CC3)cc2)c1C | Ergosterol | IC50 | - | 117 µM |
| CN(C)CCCCCCCCOc1ccc2ccc(=O)oc2c1 | Oxidosqualene cyclase | IC50 | - | 1.04 µM |
| NC(=NC1CC1)c1ccc(-c2ccc(-c3ccc(C(N)=NC4CC4)cc3)o2)cc1 | Ergosterol | IC50 | - | 36 µM |
| OCCN1CCN(CCOc2ccc(-c3ccccc3)cc2)CC1 | Oxidosqualene cyclase | inhibition | 2 µM | 20% |
| COc1cccc(-c2coc3nc(N)[nH]c(=O)c23)c1 | DHFR | IC50 | - | 50 µM |
| Cn1c2ccc(C3=NCCCN3)cc2c2cc(C3=NCCCN3)ccc21 | Ergosterol | IC50 | - | 147 µM |
| O=c1[nH]cnc2c1ncn2[C@@H]1O[C@H](CO)[C@@H](O)[C@H]1O | DHPS | inhibition | 100 µM | 0% |
| C=CCN(C)CC#CCCCCOc1ccc2ccc(=O)oc2c1 | Oxidosqualene cyclase | IC50 | - | 0.07 µM |
| Cn1c2ccc(C3=NCCN3)cc2c2cc(C3=NCCN3)ccc21 | Topoisomerase II | IC50 | - | 5–10 µM |
| N=C(N)c1ccc(-c2ccc(-c3ccc(C(=N)N)cc3)o2)cc1 | Ergosterol | IC50 | - | 58 µM |
| Cc1cc(C)nc(/N=C(\N)Nc2ccc(S(=O)(=O)NC(=O)Nc3ccccc3)cc2)n1 | DHPS | IC50 | - | 515.7 µM |
| COc1cc(/C=N/NC(C)C)ccc1-c1ccnc(-c2ccc(/C=N/NC(C)C)cc2)n1 | Topoisomerase II | IC50 | - | 3000–6000 µM |
| c1cc2[nH]c3ccc(C4=NCCN4)cc3c2cc1C1=NCCN1 | Topoisomerase II | IC50 | - | 100 µM |
| C=CCN(C)CC#CCCCCOc1ccc2ccc(=O)oc2c1C | Oxidosqualene cyclase | IC50 | - | 0.07 µM |
| CN(C)c1ccc(C(=O)O)cc1 | DHPS | IC50 | - | >1000 µM |
| CN(C)C(=O)/C=C/c1ccc(OCCCCCCCCCC[N+](C)(C)[O-])cc1O | Oxidosqualene cyclase | IC50 | - | 0.15 µM |
| CC1(C)N=C(N)N=C(N)N1c1ccc(-c2ccc3c(Cl)cc(Cl)cc3c2)cc1 | DHFR | IC50 | - | 0.84 µM |

Repeating the first 6 entries:

compound	target	measure	tested at	value
Nc1nc(N)c2cc(Cl)ccc2n1	DHFR	IC50	-	3.6 µM
COc1cc(CNc2ccc3nc(N)[nH]c(=O)c3c2)cc(OC)c1OC	Thymidylate synthetase	IC50	-	>210 µM
Cc1cc2nc(N)nc(N)c2cc1C	DHFR	IC50	-	5.3 µM
COc1cc(N(OC)S(=O)(=O)c2ccc(N)cc2)ncn1	DHPS	IC50	-	34 µM
N=C(N)c1ccc2c(c1)[nH]c1cc(C(=N)N)ccc12	Ergosterol	IC50	-	10 µM
COc1ccc(-c2coc3nc(N)[nH]c(=O)c23)cc1	DHFR	IC50	-	50 µM

Blank or dashed fields: not listed here. Conditions beyond the fields shown may differ between rows. Inhibition is in % at the dose shown (toxicity tests: loss of growth or viability). ICn: concentration for n% inhibition.